Source: PubChem BioAssay AID504761 (Drosophila RNAi Screening Center, 2011)

Purpose: 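Genome-wide fly cell screen for genes dengue virus requires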 (primary screen)
System: D.Mel-2 cells from Drosophila
Knock-down reagent: long dsRNA against Drosophila genes
Challenge: infection with dengue virus type 2; dose and infection time not stated
Measurement: 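Cells stained for dengue envelope protein and imaged; percent of infected cells per well on duplicate plates, ranked by infection, with stained nuclei counted for cell number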
Direction: infection score: higher = more virus-infected cells; cell count: higher = more cells in the well
Call rule: 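Very low infection ranking in both replicate wells (chance probability at most 0.065), then a retest showing infection dropped 1.5-fold or more at p below 0.05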
Calls: active = confirmed: knock-down lowers infection; inactive = not picked or not confirmed
The deposit covers about 22,000 reagents; this is an unselected part of those that have a named target and a result. In the full data, 116 (0.52%) were called active. 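Calls depend on retest data that are not deposited; infection was ranked per plate without normalising between plates; the unit of the infection score is not given.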 Raw values vary from plate to plate and are shown uncorrected. Entries without a mark were called inactive. Reagents against one gene are numbered here. Names joined by + are all predicted targets of the reagent. Not given: the amount of reagent, the time to read-out.

target gene | reagent | infection score, replicate 1 | infection score, replicate 2 | cell count, replicate 1 | cell count, replicate 2
CG31016 | 1 | 4.65 | 15.9 | 6047 | 5742
CG31016 | 2 | 11.7 | 6.89 | 6005 | 6459
dpr20 | 1 | 6.19 | 4.79 | 6449 | 6341
Sln | 1 | 4.51 | 5.72 | 6556 | 6656
Sln | 2 | 17 | 7.98 | 5578 | 5953
CG32971 | 1 | 4.53 | 1.63 | 5370 | 5449
CG2765 | 1 | 7.52 | 37.1 | 6743 | 5567
gny | 1 | 3.42 | 5.16 | 6471 | 6821
Cndp2 | 1 | 3.45 | 4.57 | 5997 | 6612
CG10550 | 1 | 2.1 | 2.32 | 6531 | 6592
CG33722 + CG18749 | 1 | 1.91 | 7.14 | 5747 | 5673
CG33722 + CG18749 | 2 | 3.35 | 6.46 | 6606 | 6719
CG33722 + CG18749 | 3 | 8.86 | 17.8 | 5529 | 5836
CG31036 | 1 | 2.35 | 3.6 | 5867 | 6438
CG31036 | 2 | 3.43 | 3.68 | 6413 | 6387
Pldn | 1 | 1.53 | 3.77 | 5881 | 6497
Pldn | 2 | 25.7 | 13.7 | 4417 | 5031
mRpS23 | 1 | 3.57 | 5.62 | 5042 | 4623
Tsp47F | 1 | 6.12 | 8.08 | 6188 | 6298
mino | 1 | 4.1 | 8.24 | 6509 | 6685
eIF2Bbeta | 1 | 11.8 | 16.5 | 5030 | 5366
eIF2Bbeta | 2 | 11.8 | 8.9 | 4720 | 1168
CG15167 | 1 | 3.22 | – | 6055 | 613
mIF3 | 1 | 17 | 9.54 | 5445 | 5212

In a second layout: results already given.
target gene,reagent,"infection score, replicate 1","infection score, replicate 2","cell count, replicate 1","cell count, replicate 2"
Cndp2,1,3.45,4.57,5997,6612
CG10550,1,2.1,2.32,6531,6592
CG33722 + CG18749,1,1.91,7.14,5747,5673
CG33722 + CG18749,2,3.35,6.46,6606,6719
CG33722 + CG18749,3,8.86,17.8,5529,5836

More records follow:
target gene | reagent | infection score, replicate 1 | infection score, replicate 2 | cell count, replicate 1 | cell count, replicate 2
CG30480 | 1 | 15.5 | 9.61 | 5980 | 6753
CG30480 | 2 | 3.43 | – | 699 | 431
mRpL1 | 1 | 9.09 | 9.97 | 5390 | 6086
Zn72D | 1 | 3.37 | 19.7 | 7214 | 5696
CG10479 | 1 | 4.9 | 7.41 | 5610 | 5598
Drsl2 | 1 | 2.06 | 3.1 | 6509 | 3649
Drsl2 | 2 | 3.71 | 5.26 | 6448 | 6403
Grip71 | 1 | 0.68 | 2.67 | 586 | 7014
CG31454 | 1 | 13.8 | 7.27 | 6585 | 6438
CG31454 | 2 | 2.22 | 18.9 | 6575 | 3191
CG31454 | 3 | 4.01 | 4.44 | 5982 | 6240
CG34408 | 1 | 5.8 | 3.29 | 6764 | 6875
CG34408 | 2 | 0.32 | 1.76 | 6529 | 6708
CG34408 | 3 | 21 | 7.01 | 6254 | 6762
CG34408 | 4 | 0.3 | 0.73 | 330 | 547
